Data on two sequences can be found in paper PMC11826091.

For some of these results: Construct, isoform or probe ends are uncertain for at least one entry.

Data set [1] deals with MtvA (Pseudomonas aeruginosa PAD8 (plasmid pPAD8)). Kind of data set: EMSA. The note with it: pH 8.0, 25 min at room temperature, recombinant protein, residues 1-82, protein details: His (pET28a), probe letters rebuilt from the primers and the genome. On the technique in general: Mobility shift assays separate free from complexed probe on a gel.
The next data set deals with MtvA + MtvT. Kind of data set: EMSA. The note with it: pH 8.0, 25 min at room temperature, recombinant protein, probe letters rebuilt from the primers and the genome.

As to “ACGCCCTCTTCCTTGTTTACCCTGTATTCGAAAGTTGGAATGTTCCAATGACAAGACGTTATCTGCTTTCGGCCAAGAGATTTGGCTCCTTGCATATTATAAGAACCCCAACACTTCCCGTCGTACCTTGAATGCCCCGCCTAGCGGAGAGGCATGAATACGCTCCGTTTTATTGATTTTCAAAGCCATGAGCACGGAGTCGATTTTATAATAATCAGGATTGTCCGACGTGCGCTGATTCGCAGAGCGAGTCGGCTTCCGCCAATTAATCCAGCCTTCTTTAGAAGCGGAACAAAAGTACCAGTTTTATTATTCGAGGCCTTCCCTGAAAACGAACGAGACTTGCACTTCTTTAATCTCCATACGTACTTTCCGAAACAGCAGGCAATGTATCAATCGTTGCCAGATCTTTCTTCCGGGCGAGCGGCCGTACAATTCGGAAA (double strand) [P-exsA]”, the binding result (in data set [1]; in the data set on MtvA + MtvT) was “binds” in each case.
Take “TATGGATCCCCTCCGAGAAAGGCGGCCAGGAATAGGCAAAGCAGCAGCGATTTTCTCATCTGACTGTCCTTTAGCTGTGCTTGTTGGTGGGGGGCGATGATGGGGAGGGGAGGGTGAGCTCCGGCTCATGTGTGTCTGCAGCATCCAGGCGGCCTAGCAGTTTGGTAGACAACTGCCGCCATGCCTGGCTGCCCTCGCTGCGGCCAGCGGACGACTTGCTTGCTTCGGATTCGGTTGGAGGGGGTATTGGCTCAACCCGCTCGCTTCGAATGTGTTTGACGACTCTTAGCACGCTGATCACCAGTGTTGACGCTAAAGCGTTTAGTCTTGATACTTGCAAAAGATAACACAACGAAAGTCCGAGCCATAAACCACTCGAGTAA (double strand) [P-dotA]”: the binding result (in data set [1]; in the data set with MtvA + MtvT) was “binds” each time.
